The exact form of at least one protein or probe is not confirmed.
Molecular target: Fis-GST (Dickeya zeae EC1) (UniProt D2C1X4)
Test: EMSA
Settings: 100 and 200 nM Fis-GST; recombinant protein; residues 1-98; protein details: N-terminal GST (pGEX-6p-1); label: 3' biotin; probe letters rebuilt from the primers and the genome

Row | Sequence | binding result
1 | ATTCAGTGCTGCTGTGGTTTCAGCTATATTCATCATCGTGAAATATTTACCATTCAATATACTTAACGAATTCTCAGTAGTGGTGTTAGATATCTTTGTTGCCATGATTTCTGCCATTGTTGGTGTAATTATGGGCGTGCTCCGGGGAAGGACGATTGTATTATCAAAGAAGTGAAATAGGATTATGAATTTTCCTACGCCTATCCTGGTTATAATACCAAGGAGTAAGTTTAACAGTTATTAACAATAAAGCGGGTCATAGTGAGGTACATGGCTTCATGTTACCCAGGGATGGCTTTGCCTTTTGTGAGAGGGAATATATGTTAGGGAAGGATATATTGCACCTGAATAGCGGGGCAAGTGACATTGCAATTGTCGGA (double strand) [zmsA promoter] | binds
2 | CATTATCTTTCCTTAGCCAGCCCATAAACAGTCTGCCCGCGCAGGTAGAATTCCCGACTGATCTGACTGAAGTTCTCTGAGTGTCCGGCAAACAATAATCCGCCTGGTTTAAGTAGCGGAACAAAACGACGCAAAATGCGTTCCTGAGTCTCTTTATCGAAATAAATCATCACATTACGACAAAAGATCGCATCAAACGGCGCAGGTACAGACCATTCTGGTGCCAATAGATTCACTTGCTGAAAATGAATCATGTTCGCCAGATCCGGACGAACCCGAACCAGACCACTGTGCGGCCCGGTTCCACGCAAAAAGAAGCGCTGCATCTGCTGTGGAGAAAGTGACCGGAGATCTTCCTGCCGATAAATACCCG (double strand) [cheB promoter] | binds
3 | CTGGCATAACAGGAAACAGGATGCCTGTCAGCCAGCAACACGACTGTAGACAGGTGTCTCGTACGCACGGCGTGATGGTAAGAAACGCATAAAAATGCGCCAGGCATGCATGCCATCATGTGACCGTGTGGCCTTTCCGGCAAACCAGTTTGAATACATATCGTTACCTGTATGGGTGATGTCTGGTCCGCAGGTAGTAAAACGACAACCAACGCAGAAGCGCTGTTTTTCAGACGTCGCATCCATTTTAAATGGGTGCCATGCCGTTAAACATGGCGCTGTATGGCCCTTATTCCACGTTTGCGAACGTGGCAAGGATAATCGGCGAACGCATAGGGATAATGTTTGCAGATG (double strand) [outC promoter] | binds
4 | GAATGAATCTCCATTTCAGATGGTTATATTTTAGGTTGAGTGATAAATAGAATGCGCAATATTGACATCCTATCAATTGAAGTCTTTATCCATATCGGTGTATGAAATATGATGAAAGACACTATAATGTTATAGTTGGTTTCTCCAGTAGTTCCAGTTTTCTTGGCTGTGTGAATATTTTAATCTAAAATTATTTCTGCGATAGAATCTAAAGGCGTCGATGTCAGGAAGGCTTATCAAGGTGTTTTTTTTCGGTGTTTATTCATATCAGGAAATTAAAATAACTCACGGGTGATATAATACGATAAATTAAAATAAACGAGAATTTTTTTCTGAAAAAAACAGAAGTTCTGGTGATAGTCACCTGTAGAGATTAGCGTGA (double strand) [celZ promoter] | binds
5 | GAGTGAGGAATGGCTAAAAATGTATTATCTCTGTTATTTTATGATGTAATGTCATTTTTTAGGGGGATAAATTTCTTTGGTGGTTGAGTATCATCATGGGTTTCTTTATCTTCATATCGCCTAAAGAGAGTATACTCACCTCACCCCAATATGCAGGATGCTATGTATTCAACACAACCTTTGCTCATGGATAGTCGAAGGAATATCATTTTCTTTCAACATGATATTTACCGAGCCAGGTTGCTTAACTTTGACGGGGCTGATTCATTCAGTCATCAATACCGCTATTGATGTCGGATAGATAGCGCAATAACGATTTATTTTCCTGATAGCATGGTTTGGTGTAGGCATCTTGGGGCTAATGGATAAATGATTTTTACAACATAAATG (double strand) [pelL promoter] | binds
6 | GCAGGATGCTTTTAAGACGGAACAACCACAGGCACAGTCAGATACATTATCTATTCGTCATTGCCGTGAGTCAGACTATTTTATGGATGCCGATATTTCCACCCGCTGGGAGAGCGACACTATCAATATCTACATTACTCGAGATGCTGAACAGCAATTAAAGCTCCATATTACCTGTTGCTGTTTCAATCAAGAGGGCATGGAACAGTTTTTACAGTTGATCCGTCAACAACTCTCTTCCCTGAATTAATTGAGCTGGATATTCA (double strand) [zmsK promoter] | binds
7 | GGGAAACCGGCCGATGAAACGGCCAGTCTGGTCGCCGCTGAGCATGGTATATCGCTAGATGGACATGTTGCGCGTCAGTTGACCTCGCCGTTGTGTCGGCATTACGACCTGATTCTGGTGATGGAAAAGGCTCAAATTGATGCCGTGTGCCGTTTCGCCCCGGAAGTCCGGGGGAAAACGTTGTTGTTCGGGCACTGGTTTAACCAGCAGGAGATCACCGACCCGTACCGTAAGAGCCGGGAAGCCTTTGAGTTTGTGTATACCCAACTTGAACAATCTGCCCGTAAATGGGCACAGGCGCTGAGCCGTTAACCAGTCAGGGATTACGATGTCAGAGAGAATTGCC (double strand) [amsA promoter] | binds
8 | GTATGACGGATGCCACCTGTGCCTGAACGGCAGCGACGTACTGATCCTCTGGTGGCCGTTGCCACCGGCGTCTGACTCCTATGCACAACGGGTTGAACAGCTGTTTGCCTTGGCTGAGCTGACATTACCGCCGGTTGCGGCAACGCGGGCGCAAAAAGAGCGCAACGTGCCGCGATTTGTGCGGTAACTGCCGCTTTTTTAGGTCAGACCGGTGAATAGGGGGAACCGTTTCACTGCCCGTGTCACTCAGTAACCAGTATCCATCATGATGCCCACATCGGGAGCGGCGTAGGCATCCGTTGCAGGTACTGTTGCGAATATCTGACATGAATGAGGAAACGAGATTATG (double strand) [hrpN promoter] | binds
9 | TTTCCATCCCGCTTTATCCCGGCAGGCAGGCGAACCACGGATATCTATCCATTGCTACCAGAGCCACCCTCTCGCCGTTGCCACACCCACACACACCCGCTACACCATGGGCTCGCGTTGCCTATAGACCAATTGCGAGACGAAAAATCCCATGTTCGACACGTCATCGTCCCATTAATGGGATCACTTATAGGCAGGCGTAAGCATTTCCCTTTAAAAACAAGCAATAACAACATGGCACACAATTTGCCTTAGACAGATCGTACGTCTGACCAAGGGACAATAATCAACCACTGAATTCGCCGCTGTAAGGATTTTTGGATTTAGCTGGACCAGACACGGGGAATCTATTTTTTTGGGATGACACCATGA (double strand) [vfmE promoter] | binds
